Compound potency records, mixed from different reports. Data source: NIAID ChemDB in PubChem.

Common to all: growth or infection tests; species: Herpes simplex virus 2

Inhibition is in % at the dose shown (toxicity tests: loss of growth or viability). Neighbouring rows are from separate reports. ECn: concentration that inhibits the pathogen or its effect by n%.

{"structure": "O=C(O)CP(=O)(O)O", "endpoint": "EC50", "strain": "MS", "cell line": "MEF", "read by": "plaque count", "value": "15.8 µg/mL"}
{"structure": "Nc1nc(=O)n([C@@H]2O[C@H](CO)[C@@H](O)[C@@H]2F)cc1I", "endpoint": "inhibition", "strain": "G", "cell line": "PRK", "read by": "cytopathic effect", "tested at": "0.03 µg/mL", "value": "≥25%"}
{"structure": "CC(C)=CCC[C@@H](COS(=O)(=O)O)C1CCC2C3CC[C@H]4C[C@H](OS(=O)(=O)O)[C@@H](O)CC4(C)C3CCC21C", "endpoint": "inhibition", "strain": "G", "cell line": "VERO", "read by": "plaque count", "tested at": "20 µg/mL", "value": "30.3%"}
{"structure": "Nc1nc2c(ncn2COCCO)c(=O)[nH]1", "endpoint": "EC50", "strain": "Jensen", "cell line": "HFF", "read by": "plaque count", "value": "0.3 µg/mL"}
{"structure": "Nc1ccn([C@H]2O[C@@H](CO)[C@H](O)[C@H]2F)c(=O)n1", "endpoint": "inhibition", "strain": "G", "cell line": "VERO", "read by": "virus yield", "tested at": "0.1 µM", "value": "2%"}
{"structure": "Nc1nc2c(ncn2COCCO)c(=O)[nH]1", "endpoint": "EC50", "strain": "V74262 (acyclovir-resistant)", "cell line": "HFF", "read by": "cytopathic effect", "value": ">50 µg/mL"}
{"structure": "O=c1[nH]c(=O)n([C@@H]2O[C@H](CO)[C@@H](O)[C@@H]2F)cc1I", "endpoint": "inhibition", "strain": "G", "cell line": "VERO", "read by": "virus yield", "tested at": "1 µM", "value": "90.1%"}
{"structure": "Nc1nc2c(ncn2CCCC(CO)CO)c(=O)[nH]1", "endpoint": "EC50", "strain": "91075", "cell line": "HEL", "read by": "plaque count", "value": "5.1 µM"}
{"structure": "Cc1cn([C@@H]2O[C@H](CO)[C@@H](O)[C@@H]2F)c(=O)[nH]c1=O", "endpoint": "inhibition", "strain": "K979", "cell line": "VERO", "read by": "cytopathic effect", "tested at": "0.3 µg/mL", "value": "≥25%"}
{"structure": "CC(C)CCCC(COS(=O)(=O)O)C1CCC2C3CC=C4C[C@H](O)[C@@H](OS(=O)(=O)O)CC4(C)C3CCC12C", "endpoint": "inhibition", "strain": "G", "cell line": "VERO", "read by": "plaque count", "tested at": "20 µg/mL", "value": "51.5%"}
{"structure": "O=c1[nH]c(=O)n([C@H]2C[C@H](O)[C@@H](CO)O2)cc1CCCl", "endpoint": "inhibition", "strain": "K979", "cell line": "VERO", "read by": "cytopathic effect", "tested at": "30 µg/mL", "value": "≥25%"}
{"structure": "CC(C)=CCCC(COS(=O)(=O)O)C1CCC2C3CC=C4C[C@H](O)[C@@H](OS(=O)(=O)O)CC4(C)C3CCC12C", "endpoint": "inhibition", "strain": "G", "cell line": "VERO", "read by": "plaque count", "tested at": "40 µg/mL", "value": "21.4%"}
{"structure": "Cc1cn([C@@H]2O[C@H](CO)[C@@H](O)[C@@H]2F)c(=O)[nH]c1=O", "endpoint": "inhibition", "strain": "G", "cell line": "VERO", "read by": "virus yield", "tested at": "1 µM", "value": "82%"}
{"structure": "CC12CC[C@H](OS(=O)(=O)O)CC1=CCC1C2CCC2(C)C(C(=O)CO)CCC12", "endpoint": "inhibition", "strain": "G", "cell line": "VERO", "read by": "plaque count", "tested at": "80 µg/mL", "value": "0%"}
{"structure": "Nc1nc2c(ncn2C/C=C\\CO)c(=O)[nH]1", "endpoint": "EC50", "strain": "91075", "cell line": "HEL", "read by": "plaque count", "value": "16 µM"}

For reference, 2 entries again:

structure	endpoint	strain	cell line	read by	tested at	value
O=c1[nH]c(=O)n([C@H]2C[C@H](O)[C@@H](CO)O2)cc1CCCl	inhibition	K979	VERO	cytopathic effect	30 µg/mL	≥25%
Nc1nc(=O)n([C@@H]2O[C@H](CO)[C@@H](O)[C@@H]2F)cc1I	inhibition	G	PRK	cytopathic effect	0.03 µg/mL	≥25%